Compound potency records, mixed from different reports. Data source: NIAID ChemDB in PubChem.

Shared fields: tests in culture; organism: HIV-1; measure: fold resistance

An empty or dashed field is not shown.

SMILES,changes,strain or isolate,read by,cell line,result
Cc1cc(N2CCS(=O)CC2)ccc1NC(=O)COc1ccc(Cl)cc1C(=O)c1cccs1,RT-Y181C,Nevirapine-resistant (RT Y181C),cytopathic effect / propidium iodide,MT-4,~1
CC(C)[C@H](NC(=O)OCc1ccccn1)C(=O)N[C@@H](Cc1ccccc1)[C@@H](O)C[C@H](Cc1ccccc1)NC(=O)OCc1cccnc1,PR-L10R,NL4-3,p24,MT-4,1
CC(C)=CCOc1cc(NC(=S)c2ccoc2C)ccc1Cl,RT-V108I,NL4-3,p24,CEM + CEM-SS,1.67
CC(C)=CCOc1cc(NC(=S)c2ccoc2C)ccc1Cl,RT-Y181C,NL4-3,cytopathic effect / XTT,CEM + CEM-SS,13.3
CCc1c(Sc2cc(C)cc(C)c2)n(COCc2ccccc2)c(=O)[nH]c1=O,RT-L100I,IIIB (TIBO 82150) (RT-L100I),syncytia,CEM,2
O=C1Nc2ccc(Cl)cc2[C@@](C#CC2CC2)(C(F)(F)F)N1,RT-K101E,-,-,-,<6.32
CC(C)c1c(Sc2ccccc2)n(COCCO)c(=S)[nH]c1=O,Nevirapine resistant (RT Y181C),IIIB,syncytia,CEM,50
CC(C)=CCOc1cc(NC(=S)c2ccsc2C)ccc1Cl,RT-L100I,Oxathiin carboxanilide-resistant RT L100I,cytopathic effect / XTT,CEM + CEM-SS,37.5
Cc1ccc(C2CC2)c(-c2ccc3c(c2C)CCCO3)c1[C@H](OC(C)(C)C)C(=O)O,PI-resistant ARP-4595 (M46I/L63P/V82T/I84V),NL4-3,luminescence,MT-4,1
Cc1cc(C#N)cc(C(=O)c2cc(Cl)ccc2OCC(=O)Nc2ccc(OCCCN3CC=CC3)cc2C)c1,RT-L100I,HXB2,β-galactosidase,HeLa + HELA CD4+,~1
N#Cc1cc(Cl)cc(Oc2c(Br)ccc(CC(=O)Nc3ccc(S(N)(=O)=O)cc3Cl)c2F)c1,L100I,-,-,MT-4,<1
Cc1cc(C)cc(Sc2c(C(C)C)c(=O)[nH]c(=S)n2COCCO)c1,RT-E138K,IIIB,syncytia,CEM,8.33
C[C@@H]1CCO[C@H]2Cn3cc(C(=O)NCc4ccc(F)cc4F)c(=O)c(O)c3C(=O)N12,N155H,NL4-3,RT activity,CBMC,1.4
CCc1c(Cc2cc(C)cc(C)c2)n(COCCO)c(=O)[nH]c1=O,RT-K103N,IIIB TIBO R82913-resistant (RT K103N),syncytia,CEM,71.4
Cc1cc(OCCCS(N)(=O)=O)ccc1NC(=O)COc1ccc(Cl)cc1C(=O)c1cc(F)cc(C(F)(F)F)c1,RT-P236L,HXB2,β-galactosidase,HeLa + HELA CD4+,~1
CCC(=O)c1ccc(F)c([C@@H]2C[C@@H]2NC(=O)Nc2ccc(C#N)cn2)c1O,NNRTI-resistant (RT F227L),LAI,β-galactosidase / luminescence,TZM-bl,1.3
CCc1c(Sc2ccccc2)n(COCc2ccccc2)c(=S)[nH]c1=O,Nevirapine resistant (RT Y181C),IIIB,syncytia,CEM,113
Cc1cc(NS(=O)(=O)CC2CCCCC2)c(C)c(C(OC(C)(C)C)C(=O)O)c1-c1ccc2c(c1)CCCO2,PI-resistant ARP-4595 (M46I/L63P/V82T/I84V),NL4-3,luminescence,MT-4,1
Cc1cc(S(N)(=O)=O)ccc1NC(=O)COc1ccc(Cl)cc1C(=O)c1cccc(C#N)c1,RT-G190E,HXB2,β-galactosidase,HeLa + HELA CD4+,~1
O=C1Nc2ccc(F)c(F)c2[C@@](C#CC2CC2)(C(F)(F)F)N1,RT-L100I,-,-,-,7.78

For reference, 2 entries again:

SMILES,changes,strain or isolate,read by,cell line,result
CC(C)=CCOc1cc(NC(=S)c2ccoc2C)ccc1Cl,RT-Y181C,NL4-3,cytopathic effect / XTT,CEM + CEM-SS,13.3
CC(C)=CCOc1cc(NC(=S)c2ccoc2C)ccc1Cl,RT-V108I,NL4-3,p24,CEM + CEM-SS,1.67

Fold resistance has wild type as its base. Neighbouring rows are from separate reports.